PubChem BioAssay AID1259414 – Drosophila RNAi Screening Center | 2018

Screen: 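Fly genes that alter Wolbachia amount inside host cells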 (primary screen)
Cell system: Drosophila JW18 cells infected with Wolbachia
Reagents: long dsRNA against Drosophila genes, 0.25 µg dsRNA per well of a 384-well plate
Duration: 5 days
Conditions: cells persistently infected with Wolbachia before knock-down; no added drug
Measurement: 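Imaged fluorescence in situ signal for Wolbachia 23S rRNA per DAPI-counted host cell, given as a robust z-score within each plate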
Scale: Wolbachia per cell robust z: higher = more Wolbachia per host cell than the plate typical
Hit rule: 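Hit when robust z is 1.5 or more, or -1.5 or less, in at least two of three replicates; excludes dsRNAs with several or no targets, genes not expressed in JW18 and well A1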
The screen tested about 24,000 reagents; this is an unselected part of those with a known target gene and a result. In the full data, about 1,210 (5%) got an active call. 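Inactive calls also include excluded dsRNAs with several or no targets, genes unexpressed in JW18, and well A1, regardless of score.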 The numbers tell different reagents against one gene apart.

gene knocked down	reagent	Wolbachia per cell robust z, rep 1	Wolbachia per cell robust z, rep 2	Wolbachia per cell robust z, rep 3	call
CG30375	1	-0.336	1.49	-0.3	inactive
CG11369	1	-0.0541	-0.998	-0.972	inactive
CG30172	1	0.864	0.731	-0.344	inactive
CG30172	2	0.085	0.352	1.15	inactive
CG32107	1	0.0833	0.0188	0.798	inactive
DCTN1-p150	1	-0.132	1.39	-0.128	inactive
DCTN1-p150	2	0.963	-1.39	-0.0636	inactive
CG31106	1	0.00663	0.113	-0.99	inactive
CG13728	1	1.52	-0.61	-0.0977	inactive
CG31111	1	0.0177	0.255	-0.634	inactive
Ypel	1	1.47	1.28	1.2	inactive
Ypel	2	0.886	1.5	-5.88	inactive
CG4372	1	-0.125	0.439	0.721	inactive
Prx6a	1	0.691	-0.478	-0.787	inactive
SelG	1	-0.282	0.25	0.779	inactive
SelG	2	1.38	-0.284	-0.0579	inactive
Trf4-1	1	-1.91	-5.03	-3.73	inactive
corolla	1	-1.38	0.136	-0.338	inactive
CG42541	1	0.773	-1.42	-1.18	inactive
CG42541	2	0.523	1.31	0.581	inactive
CG42541	3	0.652	0.266	-0.33	inactive
CG42541	4	0.17	0.0835	0.847	inactive
Nrt	1	0.0939	-0.0293	-1.04	inactive
chinmo	1	-0.471	0.598	-0.416	inactive
chinmo	2	0.0708	-0.244	0.48	inactive
chinmo	3	-0.219	0.409	-0.11	inactive
chinmo	4	1.45	-8.9	0.659	inactive
Cad86C	1	0.0394	-0.126	-0.569	inactive
Cad86C	2	0.653	0.131	1.1	inactive
Cad86C	3	-1.5	-1.42	-1.99	active
Cad86C	4	0.559	0.0216	0.231	inactive
CG13051	1	-0.26	-2.28	1.37	inactive
CG13051	2	-0.986	-0.222	0.329	inactive
Wnt5	1	0.353	-0.842	-0.194	inactive
Wnt5	2	-1.34	-4.2	-0.204	inactive
Ugt35C1	1	-1.54	1.11	-0.214	inactive
Ugt35C1	2	0.653	0.449	-0.0992	inactive
CG7715	1	-0.582	-1.74	0.453	inactive
Atg2	1	-0.175	-0.808	-0.203	inactive
Zn72D	1	-0.488	-1.01	-0.381	inactive
CG33453	1	-0.0408	0.697	0.625	inactive
CG33453	2	-1.14	0.519	0.956	inactive
Muc55B	1	-0.802	-1.32	-1.28	inactive
Muc55B	2	1.37	1.04	0.372	inactive
term	1	0.223	-0.0529	-0.146	inactive
CG13029	1	-0.754	-0.0654	0.332	inactive

Reprinted from the listing for reference:
gene knocked down	reagent	Wolbachia per cell robust z, rep 1	Wolbachia per cell robust z, rep 2	Wolbachia per cell robust z, rep 3	call
Ugt35C1	1	-1.54	1.11	-0.214	inactive
Ugt35C1	2	0.653	0.449	-0.0992	inactive
CG7715	1	-0.582	-1.74	0.453	inactive
Atg2	1	-0.175	-0.808	-0.203	inactive
Zn72D	1	-0.488	-1.01	-0.381	inactive
CG33453	1	-0.0408	0.697	0.625	inactive
CG33453	2	-1.14	0.519	0.956	inactive
